Compound potency records, mixed from different reports. Data source: NIAID ChemDB in PubChem.

Common to all: growth or infection tests; agent: Staphylococcus aureus; endpoint: MIC

Conditions beyond the fields shown may differ between rows.

| SMILES | strain or isolate | result |
|---|---|---|
| N#Cc1ccc(N2CCN(c3ccc(N4C[C@H](COc5ccncn5)OC4=O)cc3F)CC2)nc1 | 004 (methicillin quinolone-resistant) | 2 µg/mL |
| CC1=NN=C(OC[C@H]2CN(c3ccc(C4=CCOCC4)c(F)c3)C(=O)O2)C1 | 122 (novobiocin-resistant) | 8 µg/mL |
| CC(=O)NC[C@H]1CN(c2ccc(SCCO)c(F)c2)C(=O)O1 | ATCC 29213 (linezolid-resistant) | >64 µg/mL |
| CN(C)CCNc1cc2c(cc1F)c(=O)c(C(=O)O)cn2C1CC1 | ATCC 6538P | >100 µg/mL |
| CC(=O)NC[C@H]1CN(c2ccc(SCSC#N)c(F)c2)C(=O)O1 | ATCC 29213 (linezolid-resistant) | >64 µg/mL |
| O=C1O[C@@H](COc2ccccn2)CN1c1ccc(C2=CCOCC2)c(F)c1 | 078 (oxford) | 0.5 µg/mL |
| CC[C@H]1OC(=O)[C@H](C)C(=O)[C@H](C)[C@@H](O[C@@H]2O[C@H](C)C[C@H](N(C)C)[C@H]2O)[C@](C)(OC)C[C@@H](C)C(=O)[C@H](C)[C@H]2N(CCCCn3cnc(-c4cccnc4)c3)C(=O)O[C@]12C | 27660 (erythromycin-resistant) | 0.06 µg/mL |
| COc1ccc(-c2ccc(C3=CC(CNC(C)=O)OC3=O)cc2)ccc1=O | UC 12673 | 2 µg/mL |
| O=C1O[C@@H](COc2ccon2)CN1c1ccc(-n2cnc(CO)c2)c(F)c1 | 122 (novobiocin-resistant) | 4 µg/mL |
| NCCCCCCCCCCNc1cc2c(cc1F)c(=O)c(C(=O)O)cn2C1CC1 | ATCC 5278 (methicillin-resistant) | >100 µg/mL |
| O=C(O)NC[C@H]1CC(c2cc(F)c(N3CCN(C(=O)CO)CC3)c(F)c2)=NO1 | UC9213 | 2 µg/mL |
| O=C1O[C@@H](COc2ccncn2)CN1c1ccc(C2=CCOCC2)c(F)c1 | 078 (oxford) | 1 µg/mL |
| CC[C@H]1OC(=O)[C@H](C)C(=O)[C@H](C)[C@@H](O[C@@H]2O[C@H](C)C[C@H](N(C)C)[C@H]2O)[C@@]2(C)C[C@@H](C)C(=NC(C)=O)[C@H](C)[C@@H](OC/C(=N\Oc3ccc(-n4cccn4)nc3)CO2)[C@]1(C)O | 33591 (erythromycin methicillin-resistant) | >64 µg/mL |
| CC(O)C(=O)N1CC=C(c2ccc(N3C[C@H](COc4cnsn4)OC3=O)cc2F)CC1 | 004 (methicillin quinolone-resistant) | 0.25 µg/mL |
| CCCC/C=C/C(=O)NC[C@H]1CN(c2ccc3c(c2)-n2cccc2COC3)C(=O)O1 | ATCC 29213 (MSSA) | >32 µg/mL |
| CSc1ccc(N2C[C@H](CNC(C)=O)OC2=O)cc1F | ATCC 29213 (linezolid-resistant) | >64 µg/mL |
| N=Cc1cn(-c2ccc(N3C[C@H](COc4ccon4)OC3=O)cc2F)cn1 | 004 (methicillin quinolone-resistant) | 2 µg/mL |
| O=C(O)NC[C@H]1CC(c2ccc(-n3ccnc3)c(F)c2)=NO1 | UC9218 | 2 µg/mL |
| O=C(C(O)Cn1cccc1)N1CC=C(c2ccc(N3C[C@H](COc4ccon4)OC3=O)cc2F)CC1 | 078 (oxford) | 1 µg/mL |
| NCCCCCCCCCNc1cc2c(cc1F)c(=O)c(C(=O)O)cn2C1CC1 | ATCC 6538P | >100 µg/mL |
| O=C(CO)N1CC=C(c2c(F)cc(N3C[C@H](COc4ccon4)OC3=O)cc2F)CC1 | 078 (oxford) | 0.5 µg/mL |
| CC(=O)NC[C@H]1CN(c2ccc3c(c2)OCc2nccn2-3)C(=O)O1 | 133 | 0.25 µg/mL |
| COC(=S)NC[C@H]1CN(c2ccc3c(c2)-n2cccc2COC3)C(=O)O1 | ATCC 33591 (MRSA) | 0.5 µg/mL |
| N#Cc1ccn(-c2ccc(N3C[C@H](COc4ccon4)OC3=O)cc2F)c1 | 004 (methicillin quinolone-resistant) | 0.5 µg/mL |
| CC(C)CC(=O)NC[C@H]1CN(c2ccc3c(c2)-n2cccc2COC3)C(=O)O1 | ATCC 49951 (SMITH) | 16 µg/mL |
| O=C1O[C@@H](COc2cccnc2)CN1c1ccc(C2=CCOCC2)c(F)c1 | 004 (methicillin quinolone-resistant) | 2 µg/mL |
| O=C(CCl)NC[C@H]1CN(c2ccc3c(c2)-n2cccc2COC3)C(=O)O1 | ATCC 33591 (MRSA) | 1 µg/mL |
| COCC(C)Nc1cc2c(cc1F)c(=O)c(C(=O)O)cn2C1CC1 | ATCC 5278 (methicillin-resistant) | >100 µg/mL |
| CC[C@H]1OC(=O)[C@H](C)C(=O)[C@H](C)[C@@H](O[C@@H]2O[C@H](C)C[C@H](N(C)C)[C@H]2O)[C@@]2(C)C[C@@H](C)C(=NC(C)=O)[C@H](C)[C@@H](OC/C(=N\OCCc3ccccc3)CO2)[C@]1(C)O | 27660 (erythromycin-resistant) | 0.5 µg/mL |
| COc1ccc(CNc2cc3c(cc2F)c(=O)c(C(=O)O)cn3C2CC2)cc1OC | ATCC 6538P | >100 µg/mL |
| O=C(O)NC[C@H]1CC(c2ccc(N3CCN(C(=O)CO)CC3)c(F)c2)=NO1 | UC9213 | 4 µg/mL |
| N#Cc1ccc(N2CCN(c3ccc(N4C[C@H](COc5cnccn5)OC4=O)cc3F)CC2)nn1 | 078 (oxford) | 1 µg/mL |
| CC[C@H]1OC(=O)[C@H](C)C(=O)[C@H](C)[C@@H](O[C@@H]2O[C@H](C)C[C@H](N(C)C)[C@H]2O)[C@@]2(C)C[C@@H](C)C(=NC(C)=O)[C@H](C)[C@@H](OC/C(=N\OCC#Cc3ccc(N)nc3)CO2)[C@]1(C)O | 25923 (erythromycin-susceptible) | 0.13 µg/mL |
| CCOC(=O)C(C)(C)Sc1ccc(N2C[C@H](CNC(C)=O)OC2=O)cc1F | ATCC 29213 (linezolid-resistant) | >64 µg/mL |
| NCCCCNc1cc2c(cc1F)c(=O)c(C(=O)O)cn2-c1ccc(F)cc1F | ATCC 6538P | 3.1 µg/mL |
| C=CC(=O)NC[C@H]1CN(c2ccc3c(c2)-n2cccc2COC3)C(=O)O1 | ATCC 33591 (MRSA) | 4 µg/mL |
| Nc1ccc(OC[C@H]2CN(c3ccc(C4=CCOCC4)c(F)c3)C(=O)O2)cn1 | 078 (oxford) | 2 µg/mL |
| CC[C@H]1OC(=O)[C@H](C)[C@@H](O[C@H]2C[C@@](C)(OC)[C@@H](O)[C@H](C)O2)[C@H](C)[C@@H](O[C@H]2O[C@@H](C)C[C@@H](N(C)C)[C@@H]2O)[C@](C)(O)C[C@@H](C)C(=O)[C@H](C)[C@@H](O)[C@]1(C)O | 33591 (erythromycin methicillin-resistant) | >64 µg/mL |

For reference, 3 entries again:

COC(=S)NC[C@H]1CN(c2ccc3c(c2)-n2cccc2COC3)C(=O)O1 ; strain or isolate: ATCC 33591 (MRSA) ; result: 0.5 µg/mL
COc1ccc(-c2ccc(C3=CC(CNC(C)=O)OC3=O)cc2)ccc1=O ; strain or isolate: UC 12673 ; result: 2 µg/mL
O=C1O[C@@H](COc2ccncn2)CN1c1ccc(C2=CCOCC2)c(F)c1 ; strain or isolate: 078 (oxford) ; result: 1 µg/mL